Measured values from several laboratories, pooled; numbers as filed in NIAID ChemDB.

All rows: tests on isolated targets; agent: HIV-1; protein: Reverse transcriptase; measure: inhibition

Percent inhibition refers to the dose given; in toxicity tests it is the harm to the cells. Rows are shuffled and stem from different studies. a–b is a range or a potency band.

CC1(C)CCC[C@]2(C)C3=C(C[C@H](C4=CCOC4=O)C3)C(=O)C[C@@H]12 ; tested at: 200 µg/mL ; method: RT activity / fluorescence ; result: 60%
O=C(NCCc1ccccc1)Nc1ccc(Cl)cc1 ; tested at: 0.1 µg/mL ; method: nucleotide incorporation ; result: 4%
COc1ccc2c(c1)N(C)C(=O)c1ccnnc1O2 ; tested at: 330 µM ; method: ELISA ; result: 39%
O=C1NC(c2c[nH]c3ccc(O)cc23)=C/C1=C1\C(=O)NC2C=CC=CC12 ; tested at: 500 µM ; method: RT activity / ELISA ; result: 94.28%
COc1ccc2c(c1)C=CC(C#N)N2C(=O)c1ccccc1 ; tested at: 50 µM ; method: nucleotide incorporation ; result: 36.7%
O=C(NCCc1c[nH]c2ccccc12)c1nc2ccccc2c(=O)[nH]1 ; tested at: 100 µM ; method: nucleotide incorporation / fluorescence ; result: 37%
CCCCCCCCCCCCCCCC(=O)Oc1cc(S(=O)(=O)O)c2ccccc2c1N ; tested at: 50 µM ; method: RT activity ; result: 93.5%
C=C(C)OC(=O)N1c2ccc([N+](=O)[O-])cc2C=CC1C#N ; tested at: 50 µM ; method: nucleotide incorporation ; result: ≤30%
O=C(CC(=O)Nc1ncc(C(F)(F)F)cc1C(F)(F)F)Nc1ccc2ccccc2n1 ; tested at: 100 µM ; method: RT activity / absorbance ; result: 79.34%
O=C(NCCc1ccccc1)Nc1nc(C(F)(F)F)cs1 ; tested at: 0.1 µg/mL ; method: nucleotide incorporation ; result: 63–68%
N#CC1C=Cc2ccccc2N1C(=O)C1=CC2C=CC=CC2S1 ; tested at: 50 µM ; method: nucleotide incorporation ; result: 45.9%
O=S(=O)(O)c1cccc2ccc(OS(=O)(=O)c3cccc4c(S(=O)(=O)Oc5ccc6cccc(S(=O)(=O)O)c6c5)cccc34)cc12 ; tested at: 50 µM ; method: RT activity ; result: 75%
O=C(c1cc2ccccc2[nH]1)N1CCN(C(=O)c2cccc3[nH]ccc23)CC1 ; tested at: 100 µM ; method: nucleotide incorporation / fluorescence ; result: 38%
Fc1cccc(Cl)c1CCNC(=S)Nc1nccs1 ; tested at: 1 µg/mL ; method: nucleotide incorporation ; result: 77%
N#CC1C=Cc2ccccc2N1C(=O)CCl ; tested at: 50 µM ; method: nucleotide incorporation ; result: ≤30%
CCn1c2ccccc2c2ccc(N)nc21 ; tested at: 100 µM ; method: nucleotide incorporation / fluorescence ; result: 23%
Cc1nc(NC(=O)NCCc2ccccc2)sc1C ; tested at: 0.1 µg/mL ; method: nucleotide incorporation ; result: 34%
C/C1=C\C=C\C2(C)C=C(CO)C(C)CC23OC([O-])C(C3=O)C(O)/C=C/C2(C)C=C(C=O)C(C)CC23OC([O-])C(C3=O)C(O)/C(C)=C/C=C/C2C=C(CO)C(C)CC23OC([O-])C(C3=O)C(O)/C=C/C2(C)C=C(C=O)C(C)CC23OC([O-])C(C3=O)C1O ; tested at: 100 µg/mL ; strain: IIIB ; method: RT activity ; result: 94.9%
N#Cc1ccnc(NC(=O)CC(=O)Nc2ccc3ccccc3n2)c1 ; tested at: 100 µM ; method: RT activity / absorbance ; result: 62.73%
COC(=O)c1cc(O)c(O)c(O)c1 ; tested at: 25 µM ; method: ELISA ; result: 33.4%
O=C(NCCc1ccccc1)Nc1cnccn1 ; tested at: 1 µg/mL ; method: nucleotide incorporation ; result: 27%
C[C@@H](Cc1c[nH]c2ccccc12)NC(=O)CCn1c(=O)[nH]c2ccccc2c1=O ; tested at: 100 µM ; method: nucleotide incorporation / fluorescence ; result: 27%
COc1ccc2c(c1)N(C(C)C)C(=O)c1cc(Cl)nnc1O2 ; tested at: 330 µM ; method: ELISA ; result: 46%
O=C(CCCCCCC(=O)Nc1ccc(S(=O)(=O)O)c2cccc(S(=O)(=O)O)c12)Nc1ccc(S(=O)(=O)O)c2cccc(S(=O)(=O)O)c12 ; tested at: 50 µM ; method: RT activity ; result: 0%
O=C(CC(=O)Nc1ccc2ccccc2n1)Nc1ccc(F)cn1 ; tested at: 100 µM ; method: RT activity / absorbance ; result: 62.26%
Cc1cc(C)c(S(=O)(=O)Oc2ccc3cccc(S(=O)(=O)O)c3c2)c(C)c1S(=O)(=O)Oc1ccc2cccc(S(=O)(=O)O)c2c1 ; tested at: 50 µM ; method: RT activity ; result: 87%
CC(C)OC(=O)N1c2ccc([N+](=O)[O-])cc2C=CC1C#N ; tested at: 50 µM ; method: nucleotide incorporation ; result: 94%
O=C(NCCc1ccccc1)Nc1nc2c(Cl)cccc2s1 ; tested at: 0.1 µg/mL ; method: nucleotide incorporation ; result: 9%
O=C(CCCCCCCCCCC(=O)Nc1ccc(S(=O)(=O)O)c2cccc(S(=O)(=O)O)c12)Nc1ccc(S(=O)(=O)O)c2cccc(S(=O)(=O)O)c12 ; tested at: 50 µM ; method: RT activity ; result: 87%
Oc1ccc(-c2[nH]ncc2-c2ccccc2)c(O)c1 ; tested at: 100 µM ; method: nucleotide incorporation / fluorescence ; result: 35%
O=C(NCCc1ccccc1)Nc1nc(-c2ccc(Cl)cc2)cs1 ; tested at: 1 µg/mL ; method: nucleotide incorporation ; result: 1%
O=C(CC(=O)Nc1ccc2ccccc2n1)Nc1cc(Cl)ccn1 ; tested at: 100 µM ; method: RT activity / absorbance ; result: 65.41%
CC(Br)C(=O)N1c2ccccc2C=CC1C#N ; tested at: 50 µM ; method: nucleotide incorporation ; result: ≤30%
Cc1cc(C)c(S(=O)(=O)Nc2cc(C(=O)O)c(O)c(S(=O)(=O)O)c2)c(C)c1S(=O)(=O)Nc1cc(C(=O)O)c(O)c(S(=O)(=O)O)c1 ; tested at: 50 µM ; method: RT activity ; result: 68%
C=CCN1C(=O)c2ccnnc2Oc2ccc(C)cc21 ; tested at: 330 µM ; method: ELISA ; result: 79%
O=C(CCCCCCCCC(=O)Nc1ccc(S(=O)(=O)O)c2cccc(S(=O)(=O)O)c12)Nc1ccc(S(=O)(=O)O)c2cccc(S(=O)(=O)O)c12 ; tested at: 50 µM ; method: RT activity ; result: 43%
C=C(C)OC(=O)N1c2ccccc2C=CC1C#N ; tested at: 50 µM ; method: nucleotide incorporation ; result: ≤30%
COc1ccc2c(c1)N(C(C)C)C(=O)c1ccnnc1O2 ; tested at: 33 µM ; method: ELISA ; result: 27%
CC(C)Nc1cccnc1N1CCC(C2CCN(C(=O)c3cc4ccccc4[nH]3)CC2)CC1 ; tested at: 100 µM ; method: nucleotide incorporation ; result: 0%
CS(=O)(=O)S(=O)(=O)N1c2ccccc2C=CC1C#N ; tested at: 50 µM ; method: nucleotide incorporation ; result: ≤30%
Cc1cccc2[nH]c(C(=O)N3CCN(c4ncccc4NC(C)C)CC3)cc12 ; tested at: 100 µM ; method: nucleotide incorporation ; result: 66%
Nc1ccc(S(=O)(=O)O)c2ccccc12 ; tested at: 50 µM ; method: RT activity ; result: 0%
CC(C)Nc1cccnc1N(C)CCCCN(C)C(=O)c1cc2ccccc2[nH]1 ; tested at: 100 µM ; method: nucleotide incorporation ; result: 91%
CCCOC(=O)N1c2ccccc2C=CC1C#N ; tested at: 50 µM ; method: nucleotide incorporation ; result: 81.2%

The last 6 rows once more:

{"SMILES": "CC(C)Nc1cccnc1N1CCC(C2CCN(C(=O)c3cc4ccccc4[nH]3)CC2)CC1", "tested at": "100 µM", "method": "nucleotide incorporation", "result": "0%"}
{"SMILES": "CS(=O)(=O)S(=O)(=O)N1c2ccccc2C=CC1C#N", "tested at": "50 µM", "method": "nucleotide incorporation", "result": "≤30%"}
{"SMILES": "Cc1cccc2[nH]c(C(=O)N3CCN(c4ncccc4NC(C)C)CC3)cc12", "tested at": "100 µM", "method": "nucleotide incorporation", "result": "66%"}
{"SMILES": "Nc1ccc(S(=O)(=O)O)c2ccccc12", "tested at": "50 µM", "method": "RT activity", "result": "0%"}
{"SMILES": "CC(C)Nc1cccnc1N(C)CCCCN(C)C(=O)c1cc2ccccc2[nH]1", "tested at": "100 µM", "method": "nucleotide incorporation", "result": "91%"}
{"SMILES": "CCCOC(=O)N1c2ccccc2C=CC1C#N", "tested at": "50 µM", "method": "nucleotide incorporation", "result": "81.2%"}